System: Adenovirus Type 5
Details: HeLa cells
Description: Viral infection and treatment with TCP: HeLa cells (2×10^6) were treated with control DMSO (D) or 2 mM Tranylcypromine (T) for 5 hours prior to infection with various amounts of Adenovirus Type 5 (1.2×10^8, 2.3×10^8, and 4.5×10^8 NAS IU) for 2 or 4 hours. Equal amounts of infected cell lysates were resolved by SDS-PAGE and Western blotted with anti-E1A, anti-LSD1, and anti-β tubulin antibodies. HEK293 and uninfected HeLa cell lysates represented E1A positive and negative controls.
HeLa cells (2×10^6) were treated with control DMSO (D) or various concentrations of Tranylcypromine (TCP) for 5 hours prior to infection with 2.3×10^9 NAS IU of adenovirus Type 5 for 2 hours. Equal amounts of infected cell lysates were resolved by SDS-PAGE and Western blotted with anti-E1A, anti-β Tubulin, and anti-TBP antibodies.

N[C@@H]1C[C@H]1c1ccccc1 (racemic) [TCP, Tranylcypromine]
levels of the controls LSD1 and β-Tubulin (2 mM): no significant impact | levels of the control TBP and β-Tubulin proteins (various concentrations of TCP): no significant impact

— patent publication US9499821B2, “Preventing or treating viral infection using an inhibitor of the LSD1 protein, a MAO inhibitor or an inhibitor of LSD1 and a MAO inhibitor” (The United States of America, as represented by the …, priority 2008, dated 2016)
